Source: PubChem BioAssay AID1224833 (University of Georgia, 2016)
Shown is one part, drawn at random, of about 12,000 deposited reagents. About 5,600 of all reagents (46%) count as active. 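Active calls cover z-scores past 1 in both directions, so they include lowered as well as raised rotavirus replication.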 Entries without a mark were called inactive. No sequences are given here.

Aim: 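Human genes whose knock-down alters rotavirus replication in monkey cells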 (primary screen)
Cells: monkey MA104 kidney cells
Reagents: siRNA pool against human genes, 50 nM
Timing: 48 h knock-down before infection; read 24 h after infection
Treatment: infection with rotavirus strain RV3 two days after transfection; infectious dose for this stage not given
Measured: 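z-score of rotavirus antigen signal per well, from a fluorescent immunoassay, relative to non-targeting control wells on the same plate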
Direction: z-score vs non-targeting control: higher = more rotavirus replication than with non-targeting control
Call rule: In these data the active calls have z-score vs non-targeting control at about -1 or lower, or at about 1 or higher
Meaning of the calls: active = z-score beyond 1 either way; inactive = z-score within 1 of zero

Target gene	z-score vs non-targeting control
TBC1D29P	-0.704
TIMCC	-2.96 (active)
RP2	-1.34 (active)
LPCAT2	0.702
GHITM	1.08 (active)
OR5K1	-2.02 (active)
SACK1D	-0.927
SACK1A	1.38 (active)
ARHGAP12	-1.3 (active)
MAGEA2	0.0386
MAGEE2	-0.108
PTCHD1	-1.34 (active)
NR5A2	1.52 (active)
ZNF233	-0.0995
FZR1	-1.02 (active)
ARHGAP21	-0.722
ZNF404	-0.786
MED28	-0.228
ZNF668	-1.16 (active)
DISC1	0.23
ZNF674	-2.49 (active)
IPO11	0.646
GBX2	0.592
CD320	-0.308
ZFP90	0.076
KIFC1	1.36 (active)
MIR1915HG	-2.28 (active)
CPB2	0.661
PDZD11	-0.613
CDC16	-2.66 (active)
APRG1	-0.896
N4BP2L1	-1.24 (active)
SMC1B	0.502
FKBP9	-1.51 (active)
MAGEA5P	-1.69 (active)
ZNF764	-1.22 (active)
COL19A1	-0.937
OR2D2	-0.471
RPL28	0.263
AWAT1	-0.112
ADCY1	-1.04 (active)
H4C13	-0.397
MS4A5	-0.165
TCEAL2	0.466
PEDS1	-1.54 (active)
KRTAP3-2	0.534
MRPL54	0.789
NCAPH	0.229
CSTF2T	0.0191
OR11H12	-0.752
CHCHD6	-0.0915
RIMS2	-1.18 (active)
CHERP	0.719
SASH1	-0.186
N4BP2L2	-0.0057
HINFP	-0.362
RBM41	-0.97
ZSCAN20	-2.04 (active)
PELP1	-1.49 (active)
BNIPL	-0.209
AP3S1	0.0372
GTSE1	-0.918
ZC2HC1A	1.21 (active)
OR8B12	-0.196
PHGDH	0.153
ZNF563	-0.925
GPBAR1	-0.738
IQSEC3	0.467
TMBIM6	-0.775
CCDC70	-2.18 (active)
BPIFA2	-1.56 (active)
ESRP2	0.249
OOEP	-1.18 (active)
LMOD1	0.107
PTN	-0.882
LONP1	1.52 (active)
UBFD1	-1.28 (active)
RND3	1.41 (active)
RBPMS	-0.375
HSPA14	-2.03 (active)
PSMD4	0.189
F2RL2	-1.68 (active)
ENTPD1	-1.39 (active)
ATP1B3	0.956
OR51E2	-0.572
NR2C2AP	-1.79 (active)
ZNF703	-2.51 (active)
BORCS6	-0.792
MED15	-1.01 (active)
CDKN2A	-1.45 (active)
SAXO1	0.621
GRPEL2	-0.597
POU6F2	-0.642
NKAPD1	0.956
COX4I1	1.5 (active)
SP6	0.292
RAB15	0.156
ERF	-0.85
PDCD10	0.397
PHOX2A	-1.23 (active)
PPP1R17	0.0619
L1CAM	1.4 (active)
ZMYM6	-0.678
FIRRM	0.82
SLC5A9	-1.55 (active)
YWHAG	0.571
ZNF382	-2.43 (active)
ADIG	2.17 (active)
TPST1	-1.14 (active)
OR1J1	0.246

15 consecutive records from above, for reference:
Target gene	z-score vs non-targeting control
MRPL54	0.789
NCAPH	0.229
CSTF2T	0.0191
OR11H12	-0.752
CHCHD6	-0.0915
RIMS2	-1.18 (active)
CHERP	0.719
SASH1	-0.186
N4BP2L2	-0.0057
HINFP	-0.362
RBM41	-0.97
ZSCAN20	-2.04 (active)
PELP1	-1.49 (active)
BNIPL	-0.209
AP3S1	0.0372
